PubChem BioAssay AID504761 – Drosophila RNAi Screening Center | 2011
In all, the deposit lists about 22,000 reagents; below is an unselected part of those that have a named target and a result. Of all reagents, 116 (0.52%) are marked active. 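Calls depend on retest data that are not deposited; infection was ranked per plate without normalising between plates; the unit of the infection score is not given.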 Not all columns of the deposit are shown. Not given: the amount of reagent, the time to read-out.

Assay: 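Genome-wide fly cell screen for genes dengue virus requires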 (primary screen)
System: D.Mel-2 cells from Drosophila
Reagents: long dsRNA against Drosophila genes
Challenge: infection with dengue virus type 2; dose and infection time not stated
Detection: 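Per well on two replicate plates, imaging gave the percent of cells positive for viral envelope protein, ranked by infection, and a nuclear count of cells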
Scale: infection score: higher = more virus-infected cells
Hit rule: 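Low infection ranks in the two replicates (chance level up to 0.065) followed by a retest with a 1.5-fold or larger significant decrease, p below 0.05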
Meaning of the calls: active = confirmed: knock-down lowers infection; inactive = not picked or not confirmed

Against Syx6 [DRSC07032] the deposit lists infection score, replicate 1 = 21.8; inactive. Knock-down of Syx6 [DRSC25244] gave: infection score, replicate 1 = 1.58; inactive. CG5567 [DRSC10517] gave infection score, replicate 1 = 11.8; inactive. For CG1299 [DRSC08300], the entry reads infection score, replicate 1 = 3.94; inactive. Knock-down of Taf12 [DRSC16879] resulted in: infection score, replicate 1 = 17.4; inactive. Taf12 [DRSC28181] showed infection score, replicate 1 = 16.5; inactive.

Knock-down of MRP [DRSC02942] came out at: infection score, replicate 1 = 3.85; inactive. After knock-down of Nep1 [DRSC18388], the record shows infection score, replicate 1 = 3.48; inactive. Nep1 [DRSC26208] scored infection score, replicate 1 = 8.85; inactive.

In a second layout: results already given
| gene | DRSC id | infection score, replicate 1 | outcome |
| --- | --- | --- | --- |
| CG1299 | DRSC08300 | 3.94 | inactive |
| Taf12 | DRSC16879 | 17.4 | inactive |
| Taf12 | DRSC28181 | 16.5 | inactive |
| MRP | DRSC02942 | 3.85 | inactive |

Continued:
Against CG10702 [DRSC02097], the entry reads infection score, replicate 1 = 16.4; inactive. CG10019 [DRSC24959] scored infection score, replicate 1 = 2.67; inactive. Silencing of CG7878 [DRSC16330] gave: infection score, replicate 1 = 1.48; inactive. Silencing of CG7878 [DRSC23990] gave: infection score, replicate 1 = 7.49; inactive. Silencing of blw [DRSC04675] came out at: infection score, replicate 1 = 7.67; inactive. CG14855 [DRSC14979] scored infection score, replicate 1 = 1.5; inactive.

Depletion of CG14855 [DRSC27350] gave: infection score, replicate 1 = 5.71; inactive. Silencing of CG3598 [DRSC18471] came out at: infection score, replicate 1 = 9.41; inactive. For CG3598 [DRSC26825], the values are infection score, replicate 1 = 7.93; inactive. With knock-down of CG7213 [DRSC10787], the screen gave infection score, replicate 1 = 2.62; inactive. Silencing of ND-MWFE [DRSC06364] resulted in: infection score, replicate 1 = 11; inactive. For CG7300 [DRSC03044] the deposit lists infection score, replicate 1 = 20.4; inactive.

With knock-down of CG7300 [DRSC28239], the record shows infection score, replicate 1 = 15.9; inactive.
